Compound potency records, mixed from different reports. Data source: NIAID ChemDB in PubChem.

All rows: whole-cell or culture tests; species: Herpes simplex virus 1; read-out: EC90

Rows are shuffled and stem from different studies. ECn is the concentration giving n% inhibition of infection, replication or growth. Blank or dashed fields: not listed here.

SMILES	strain or isolate	cells	method	result
OCC(CO)OCn1cc(I)c2c(NO)ncnc21	-	HFF	virus yield	>100 µM
Nc1nc2c(ncn2COCCO)c(=O)[nH]1	KOS	VERO	plaque count	12.7 µM
CC(=O)OC(C(=O)Nc1ccc2nc(NC(C)(C)C(=O)N(C)CCc3ccccn3)oc(=O)c2c1C)c1ccccc1	-	VERO	plaque count	>12.5 µM
O=c1[nH]c(=O)n([C@H]2C[C@H](O)[C@@H](CO)O2)cc1F	-	HeLa	virus yield	>250 µM
Cc1c(NC(=O)OC(C)(C)C)ccc2nc(N3CCCC[C@H]3C(=O)NCc3ccccn3)oc(=O)c12	-	VERO	plaque count	>12.5 µM
O=C(N/C(C(=O)N1CCCCC1)=C(/Cl)c1ccccc1)c1ccccc1	-	VERO	-	>81 µM
Nc1ccn([C@H]2C[C@H](O)[C@@H](CO)O2)c(=O)n1	-	HeLa	virus yield	26 µM
CC(=O)OC[C@H]1O[C@@H]2Oc3c(c(=O)n(C)c(=O)n3C)S[C@@H]2[C@@H](OC(C)=O)[C@H]1OC(C)=O	-	VERO	-	>100 µM
NC(=S)c1cn(COC(CO)CO)c2ncnc(N)c12	-	HFF	virus yield	3.5 µM
Cc1c(NC(=O)OC(C)(C)C)ccc2nc(N3CCCC[C@H]3C(=O)NCCc3ccccn3)oc(=O)c12	-	VERO	plaque count	>12.5 µM
CCCCCCCC/C=C\CCCCCCCOCCOP(=O)(O)CO[C@H](CO)Cn1cnc2c(N)ncnc21	-	MRC-5	hybridisation	0.0009 µM
Cn1c2c(c(=O)n(C)c1=O)S[C@H]1[C@@H](O2)O[C@H](COc2ccccc2)[C@@H](OCc2ccccc2)[C@@H]1OCc1ccccc1	-	VERO	-	>100 µM
Cc1c(NC(=O)c2cccs2)ccc2nc(NC(C)(C)C(=O)N(C)CCc3ccccn3)oc(=O)c12	-	VERO	plaque count	>12.5 µM
OC[C@H]1O[C@@H](c2cc(Br)nc3cc(Cl)c(Cl)cc23)C(O)C1O	-	HFF	virus yield	37 µM
CC(=O)O[C@@H]1[C@@H](OC(C)=O)[C@H](C)O[C@@H]2Oc3c(c(=O)n(C)c(=O)n3C)S[C@@H]21	-	VERO	-	>100 µM
Cc1c(NC(=O)CCNC(=O)OCc2ccccc2)ccc2nc(NC(C)(C)C(=O)N(C)CCc3ccccn3)oc(=O)c12	-	VERO	plaque count	>12.5 µM
OCC(CO)OCn1cc(Br)c2c(NO)ncnc21	-	HFF	virus yield	>100 µM
CCC(CC)C(=O)Nc1ccc2nc(NC(C)(C)C(=O)N(C)CCc3ccccn3)oc(=O)c2c1C	-	VERO	plaque count	12.5 µM
Cc1nc(N(C)C(=O)Cc2ccc(-c3ccccn3)cc2)sc1S(N)(=O)=O	1 (KOS)	HEF	plaque count	0.082 µM

The first 2 rows once more:

SMILES | strain or isolate | cells | method | result
OCC(CO)OCn1cc(I)c2c(NO)ncnc21 | - | HFF | virus yield | >100 µM
Nc1nc2c(ncn2COCCO)c(=O)[nH]1 | KOS | VERO | plaque count | 12.7 µM